In the series the test system is EBOV minigenome (WT NP). The note with it: BSR-T7.

Structures are written as SMILES.

`O=C(c1cccc(/C=C2\SC(=O)N(Cc3ccccc3)C2=O)c1)N1CCN(c2ccccn2)CC1` [MCCB4] came in with an SI, Selective Index (CC50/EC50) above 20.8.
